## Sequence variants of PSTVd stem 3 after infection

From the data files of Wu et al. 2024, doi:10.1371/journal.ppat.1012142.

Region: stem 3 of PSTVd (intermediate strain), upper and lower strand joined, each 5' to 3', the first 8 letters being the upper strand. Wild type: GUGGUUCCGGAACCGC. Varied positions (N): GUGGUUCCGNANNCNN.

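A pool of all variants was put on leaves of three Nicotiana benthamiana plants. Samples came from the inoculated region at 5 days, the leaf margin at 10 and upper systemic leaves at 12.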

Numbers give reads per thousand; 0 = not seen among the reads, higher = more abundant.
Each site shows the three plants.
"Pool" is the share in the plasmid pool used as inoculum, on the same scale.
The inoculated region was read from the minus strand, the other sites from the plus strand.
IR is the inoculated region, LM the leaf margin, Sys the systemic leaves.
With 27,691-54,225 reads a sample, very low values are single reads.

sequence,pool,IR,LM,Sys
GUGGUUCCGCAGCCCA,0.908,0.293 / 0.431 / 0.270,0 / 0.0636 / 0.0361,0 / 0 / 0
GUGGUUCCGCAGCCCC,1.29,0.613 / 0.863 / 0.919,0.227 / 0 / 0,0 / 0.0738 / 0
GUGGUUCCGCAGCCCG,0.785,0.347 / 0.367 / 0.270,0.0283 / 0 / 0.0361,0 / 0 / 0
GUGGUUCCGCAGCCCU,0.954,0.720 / 0.776 / 0.865,0 / 0 / 0,0 / 0 / 0
GUGGUUCCGCAGCCGA,0.862,0.453 / 0.474 / 0.216,0.0283 / 0.0318 / 0.0722,0 / 0 / 0
GUGGUUCCGCAGCCGC,0.970,0.373 / 0.453 / 0.162,0.0567 / 0 / 0.0361,0 / 0 / 0
GUGGUUCCGCAGCCGG,0.769,0.560 / 0.280 / 0.216,0 / 0 / 0.0361,0 / 0 / 0
GUGGUUCCGCAGCCGU,0.831,0.826 / 0.992 / 0.757,0 / 0.0318 / 0.0361,0 / 0.0184 / 0
GUGGUUCCGCAGCCUA,0.769,0.373 / 0.367 / 0.324,0 / 0.0318 / 0,0 / 0 / 0
GUGGUUCCGCAGCCUC,0.877,0.267 / 0.453 / 0.189,0 / 0.0318 / 0,0 / 0 / 0
GUGGUUCCGCAGCCUG,0.846,0.293 / 0.302 / 0.189,0 / 0.0318 / 0,0 / 0 / 0
GUGGUUCCGCAGCCUU,0.877,0.613 / 0.798 / 0.757,0 / 0.0318 / 0,0 / 0 / 0
GUGGUUCCGCAGGCAA,0.893,0.720 / 0.604 / 0.784,0 / 0.0318 / 0,0 / 0 / 0
GUGGUUCCGCAGGCAC,0.662,0.586 / 0.970 / 0.946,0 / 0 / 0.397,0 / 0 / 0
GUGGUUCCGCAGGCAG,0.662,0.800 / 0.604 / 0.730,0 / 0 / 0.325,0 / 0 / 0
GUGGUUCCGCAGGCAU,0.923,0.560 / 0.625 / 0.811,0 / 1.02 / 0.217,0 / 0 / 0
GUGGUUCCGCAGGCCA,0.862,0.533 / 0.323 / 0.324,0 / 0 / 0,0 / 0 / 0
GUGGUUCCGCAGGCCC,0.785,0.533 / 0.259 / 0.135,0 / 0.0318 / 0.0722,0 / 0 / 0
GUGGUUCCGCAGGCCG,0.846,0.293 / 0.388 / 0.162,0.0283 / 0 / 0,0 / 0.0184 / 0
GUGGUUCCGCAGGCCU,0.693,1.01 / 0.604 / 0.703,0.0283 / 0 / 0.433,0 / 0 / 0
GUGGUUCCGCAGGCGA,0.923,0.187 / 0.323 / 0.189,0 / 0 / 0,0 / 0 / 0
GUGGUUCCGCAGGCGC,0.785,0.506 / 0.453 / 0.297,0 / 0.0318 / 0.0722,0 / 0 / 0
GUGGUUCCGCAGGCGG,0.877,0.400 / 0.302 / 0.270,0.0283 / 0.0318 / 0.0361,0 / 0 / 0
GUGGUUCCGCAGGCGU,1.12,0.533 / 0.712 / 0.811,0.0283 / 0 / 0,0 / 0 / 0
GUGGUUCCGCAGGCUA,1.23,0.720 / 0.690 / 0.459,0 / 0 / 0,0 / 0 / 0
GUGGUUCCGCAGGCUC,0.923,0.213 / 0.625 / 0.108,0.0283 / 0.0318 / 0.0361,0 / 0 / 0
GUGGUUCCGCAGGCUG,0.862,0.426 / 0.194 / 0.270,0 / 0 / 0.0361,0 / 0 / 0
GUGGUUCCGCAGGCUU,0.831,0.746 / 0.733 / 1.08,0 / 0 / 0.0361,0 / 0 / 0
GUGGUUCCGCAGUCAA,0.893,0.880 / 0.582 / 0.892,0.0283 / 0.891 / 0.433,0 / 0 / 0
GUGGUUCCGCAGUCAC,0.816,0.666 / 0.453 / 0.892,0 / 0 / 0,0 / 0 / 0
GUGGUUCCGCAGUCAG,0.831,0.853 / 0.474 / 0.892,0.0283 / 1.18 / 0.469,0 / 0 / 0
GUGGUUCCGCAGUCAU,0.985,0.933 / 0.733 / 0.622,1.67 / 1.11 / 0.325,1.44 / 1.36 / 0.827
GUGGUUCCGCAGUCCA,0.723,0.560 / 0.582 / 0.811,0.0283 / 0 / 0.217,0 / 0 / 0
GUGGUUCCGCAGUCCC,0.985,1.04 / 0.970 / 1.05,0 / 1.24 / 0.469,0 / 0 / 0
GUGGUUCCGCAGUCCG,0.662,1.20 / 1.29 / 1.35,0.368 / 0 / 0.650,0 / 0 / 0
GUGGUUCCGCAGUCCU,1.03,0.640 / 0.668 / 0.757,1.76 / 0.891 / 0.361,1.04 / 1.24 / 0.681

Excerpt, the final 2 entries:

| sequence | pool | IR | LM | Sys |
|---|---|---|---|---|
| GUGGUUCCGCAGUCCG | 0.662 | 1.20 / 1.29 / 1.35 | 0.368 / 0 / 0.650 | 0 / 0 / 0 |
| GUGGUUCCGCAGUCCU | 1.03 | 0.640 / 0.668 / 0.757 | 1.76 / 0.891 / 0.361 | 1.04 / 1.24 / 0.681 |

The authors trace changes outside the varied positions to PCR and sequencing errors or to mutation in the plant; presence does not show that a variant is infectious alone.
For reference, wild type rose from 17.3 per thousand in the pool to 330, 345, 235 (inoculated region), 794, 766, 816 (leaf margin) and 830, 792, 869 (systemic leaves).